Marks after values point to notes of the source that are not given here.
Tested on: hepatitis B surface antigen (HBsAg)
Assay: Baboon anti-HBsAg antibody response to HBsAg co-administered with CIC (AUSAB EIA)

For “5′-TGACTGTGAACGTTCGAGATGA-3′ (SEQ ID NO: 2)”, which “titers of anti-HBsAg antibodies compared to HBsAg alone, in words” value (20 μg HBsAg + 1000 μg test compound IM at 0 and 2 months) is on record?
Its value is “increased titers of anti-HBsAg antibodies”.

And the “Anti-HBsAg (mIU/ml) post-first, Mean” value (group mean, post-first immunization, 20 ug HBsAg, with 1000 ug P-6 or CIC where given)?
Its value is 7 mIU/ml.

And the “Anti-HBsAg (mIU/ml) post-second, Mean” value (group mean, post-second immunization, 20 ug HBsAg, with 1000 ug P-6 or CIC where given)?
The value was 2200* mIU/ml.

Source: patent US9028845B2, “Chimeric immunomodulatory compounds and methods of using the same-IV” (Dynavax Technologies Corporation, priority 2001, dated 2015)
